A mixed list of measured activities; the numbers were collected in NIAID ChemDB.

Common to all: tests in culture; agent: HIV-2; cell line: MT-4; endpoint: EC50

ECn is the concentration giving n% inhibition of infection, replication or growth. Rows are shuffled and stem from different studies.

COC(=O)c1ccc(C2(C)OS(=O)(=O)C=C2N)cc1 ; strain or isolate: ROD ; read by: cytopathic effect / MTT ; result: >125 µg/mL
Cc1ccc([C@H]2C[C@]23C(=O)N(C)c2ccccc23)cc1 ; strain or isolate: ROD ; read by: MTT ; result: >0.39 µg/mL
Cc1ccc(C(C)C)c2oc(=O)c(C(=O)/C=C/c3ccc(O)cc3)c(O)c12 ; strain or isolate: ROD ; read by: virus yield ; result: >8.95 µg/mL
Cn1c(Cl)c(N=Nc2ccc(Cl)cc2)c(N)nc1=O ; strain or isolate: ROD ; read by: MTT ; result: >2.15 µM
COc1ccc(C(=O)CSc2nc3nc(C4=CCC=C=N4)c(-c4ccccn4)nc3c(=O)[nH]2)cc1 ; strain or isolate: ROD ; read by: cytopathic effect / MTT / absorbance ; result: >36.1 µM
C[C@H](CCC=C(c1cc(Cl)c(O)c(C(=O)O)c1)c1cc(Cl)c(O)c(C(=O)O)c1)[C@H]1CC[C@H]2[C@@H]3CC[C@@H]4CCCC[C@]4(C)[C@H]3CC[C@]12C ; strain or isolate: ROD ; read by: MTT ; result: >31.3 µM
Cc1cc2oc(=O)c(C(=O)/C=C/c3ccccc3)c(O)c2cc1Cl ; strain or isolate: ROD ; read by: virus yield ; result: >8.56 µg/mL
COc1ccc(CCN2C(=O)/C(=C\c3cc(OC)c(OC)c(OC)c3)N(CCc3ccc(OC)c(OC)c3)C2=S)cc1OC ; strain or isolate: ROD ; read by: cytopathic effect / MTT ; result: >13.7 µg/mL
COc1ccc(/C=C/C(=O)c2c(O)c3cc(Cl)c(C)cc3oc2=O)cc1 ; strain or isolate: ROD ; read by: virus yield ; result: >45.6 µg/mL
CN(C)c1c(N=Nc2ccc(Cl)cc2)c(N)nc(=O)n1C ; strain or isolate: ROD ; read by: MTT ; result: >28.24 µM
O=C(COc1ccc2ccccc2c1)NCc1n[nH]c(=S)n1-c1ccccc1 ; strain or isolate: ROD ; read by: MTT ; result: >20.2 µg/mL
CCCCCCNc1c(N=Nc2ccc(-c3ccc(F)cc3)cc2)c(N)nc(=O)n1C ; strain or isolate: ROD ; read by: MTT ; result: >11.66 µM
CCOC(=O)CCCCCn1c(Cc2ccccc2)c(C(C)C)c(=O)[nH]c1=O ; strain or isolate: EHO ; read by: cytopathic effect / MTT ; result: >100 µM
Cc1cc(C(C)(O)c2ccc(F)cc2)nc(Nc2ccc(C#N)cc2)n1 ; strain or isolate: ROD ; read by: MTT ; result: >61.5 µM
CCNc1c(N=Nc2ccc(Cl)cc2)c(N)nc(=O)n1C ; strain or isolate: ROD ; read by: MTT ; result: >36.72 µM
N#Cc1cc2[nH]c3ccccc3c2n(-c2ccc([N+](=O)[O-])cc2)c1=O ; read by: cytopathic effect / MTT ; result: 6.31 µM
CCOCn1c(Cc2ccccc2)c(C(C)C)c(=O)[nH]c1=O ; strain or isolate: EHO ; read by: cytopathic effect / MTT ; result: >100 µM
Nc1nc(=S)c2nc(-c3ccccn3)c(-c3ccccn3)nc2[nH]1 ; strain or isolate: ROD ; read by: cytopathic effect / MTT / absorbance ; result: >47.64 µM
Cc1ccc(C(C)C)c2oc(=O)c(C(=O)/C=C/c3ccccc3)c(O)c12 ; strain or isolate: ROD ; read by: virus yield ; result: >13.2 µg/mL
CC1(C)C(N)=CS(=O)(=O)N1Cc1ccccc1 ; strain or isolate: ROD ; read by: cytopathic effect / MTT ; result: >125 µg/mL
CC1=C[C@H](Cn2cnc3c(=O)[nH]c(N)nc32)C[C@@H]1CO ; strain or isolate: ROD ; read by: MTT ; result: >100 µg/mL
Cc1ccnc2c1NC(=O)c1cccnc1N2C1CC1 ; strain or isolate: ROD ; read by: MTT ; result: >4 µg/mL
CC1(C)OS(=O)(=O)C=C1NCc1ccccc1 ; strain or isolate: ROD ; read by: cytopathic effect / MTT ; result: >125 µg/mL
Nc1nc2nc(-c3ccccn3)c(-c3ccccn3)nc2c(=O)[nH]1 ; strain or isolate: ROD ; read by: cytopathic effect / MTT / absorbance ; result: >105.7 µM
COc1ccc(C(=O)Nc2sc3c(c2C(=O)Nc2ccccn2)CCCCC3)cc1OC ; strain or isolate: ROD ; read by: MTT / absorbance ; result: >6.24 µM
COc1ccc(CCN2C(=O)/C(=C\c3cccc(Br)c3)N(CCc3ccc(OC)c(OC)c3)C2=S)cc1OC ; strain or isolate: ROD ; read by: cytopathic effect / MTT ; result: >108 µg/mL
CC1(C)C(N)=CS(=O)(=O)N1Cc1cccc(Cl)c1 ; strain or isolate: ROD ; read by: cytopathic effect / MTT ; result: >125 µg/mL
O=c1[nH]cnc2nc(-c3ccccn3)c(-c3ccccn3)nc12 ; strain or isolate: ROD ; read by: cytopathic effect / MTT / absorbance ; result: >50.52 µM
COc1ccc(-n2c(CNC(=O)COc3ccc4ccccc4c3)n[nH]c2=S)cc1 ; strain or isolate: ROD ; read by: MTT ; result: >46.2 µg/mL
CC(C)c1c(Cc2ccccc2)n(CCCCCC(N)=O)c(=O)[nH]c1=O ; strain or isolate: EHO ; read by: cytopathic effect / MTT ; result: >100 µM
COc1c(Cl)cc(C(=CCC[C@@H](C)[C@H]2CCC3C4C(C[C@H](O)[C@@]32C)[C@@]2(C)CC[C@@H](O)C[C@H]2C[C@H]4O)c2cc(Cl)c(OC)c(C(=O)O)c2)cc1C(=O)O ; strain or isolate: ROD ; read by: MTT ; result: >54.1 µM
CC(C)c1c(Cc2ccccc2)n(CCCO)c(=O)[nH]c1=O ; strain or isolate: EHO ; read by: cytopathic effect / MTT ; result: >100 µM
CC1=C[C@H](Cn2cnc3c(=O)[nH]cnc32)C[C@@H]1CO ; strain or isolate: ROD ; read by: MTT ; result: >100 µg/mL
CC1(C)C(N)=CS(=O)(=O)N1Cc1ccc(Cl)cc1 ; strain or isolate: ROD ; read by: cytopathic effect / MTT ; result: >75 µg/mL
Cn1c(-c2ccc(F)cc2)c(N=Nc2ccc(-c3ccc(F)cc3)cc2)c(N)nc1=O ; strain or isolate: ROD ; read by: MTT ; result: >66.6 µM
Cc1ccc(C(C)C)c2oc(=O)c(C(=O)/C=C/c3cccc([N+](=O)[O-])c3)c(O)c12 ; strain or isolate: ROD ; read by: virus yield ; result: >13.1 µg/mL
COc1ccc(CCN2C(=O)/C(=C\c3cccc(Cl)c3)N(CCc3ccc(OC)c(OC)c3)C2=S)cc1OC ; strain or isolate: ROD ; read by: cytopathic effect / MTT ; result: >47.2 µg/mL
COC(=O)Cn1c(Cc2ccccc2)c(C(C)C)c(=O)[nH]c1=O ; strain or isolate: EHO ; read by: cytopathic effect / MTT ; result: >100 µM
COc1ccc(/C=C/C(=O)c2c(O)c3c(C)ccc(C(C)C)c3oc2=O)cc1 ; strain or isolate: ROD ; read by: virus yield ; result: >82.7 µg/mL
O=c1c2nc(-c3ccccn3)c(-c3ccccn3)nc2nc2scc(-c3ccccc3)n12 ; strain or isolate: ROD ; read by: cytopathic effect / MTT / absorbance ; result: >2.52 µM
O=C(COc1ccc2ccccc2c1)NCc1nnc(Nc2ccccc2)s1 ; strain or isolate: ROD ; read by: MTT ; result: >2.92 µg/mL
Cc1ccc(C(C)C)c2oc(=O)c(C(=O)/C=C/c3ccccc3[N+](=O)[O-])c(O)c12 ; strain or isolate: ROD ; read by: virus yield ; result: >2.81 µg/mL
CCCNc1c(N=Nc2ccc(-c3ccc(OC)c(OC)c3)cc2)c(N)nc(=O)n1C ; strain or isolate: ROD ; read by: MTT ; result: >36.76 µM
COc1ccc(CCN2C(=O)/C(=C\c3ccc(N(C)C)cc3)N(CCc3ccc(OC)c(OC)c3)C2=S)cc1OC ; strain or isolate: ROD ; read by: cytopathic effect / MTT ; result: >19.1 µg/mL
C=C1CN(S(=O)(=O)c2ccc(C)cc2)CCCN(Cc2ccccc2)CCCN(S(=O)(=O)c2ccc(C)cc2)C1 ; strain or isolate: ROD ; read by: cytopathic effect ; result: 0.2 µM
CCc1c(Sc2ccccc2)n(COCc2ccccc2)c(=O)[nH]c1=O ; strain or isolate: ROD ; read by: cytopathic effect / MTT ; result: >30 µM
Cc1cc2oc(=O)c(C(=O)/C=C/c3cccc([N+](=O)[O-])c3)c(O)c2cc1Cl ; strain or isolate: ROD ; read by: virus yield ; result: >66.5 µg/mL
COc1ccc(/C=C2\C(=O)N(CCc3ccc(OC)c(OC)c3)C(=S)N2CCc2ccc(OC)c(OC)c2)cc1 ; strain or isolate: ROD ; read by: cytopathic effect / MTT ; result: >82.3 µg/mL
Cc1ccc(C(C)C)c2oc(=O)c(C(=O)/C=C/c3cccc(Oc4ccccc4)c3)c(O)c12 ; strain or isolate: ROD ; read by: virus yield ; result: >9.4 µg/mL
Cc1ccc(-n2c(CNC(=O)COc3ccc4ccccc4c3)n[nH]c2=S)cc1 ; strain or isolate: ROD ; read by: MTT ; result: >25.2 µg/mL
Cc1cn([C@H]2C[C@H](N=[N+]=[N-])[C@@H](CO)O2)c(=O)[nH]c1=O ; strain or isolate: ROD ; read by: MTT ; result: 0.00094 µM

4 of the rows above, restated:

{"SMILES": "COc1ccc(CCN2C(=O)/C(=C\\c3ccc(N(C)C)cc3)N(CCc3ccc(OC)c(OC)c3)C2=S)cc1OC", "strain or isolate": "ROD", "read by": "cytopathic effect / MTT", "result": ">19.1 µg/mL"}
{"SMILES": "CCc1c(Sc2ccccc2)n(COCc2ccccc2)c(=O)[nH]c1=O", "strain or isolate": "ROD", "read by": "cytopathic effect / MTT", "result": ">30 µM"}
{"SMILES": "Cc1ccc(C(C)C)c2oc(=O)c(C(=O)/C=C/c3ccccc3)c(O)c12", "strain or isolate": "ROD", "read by": "virus yield", "result": ">13.2 µg/mL"}
{"SMILES": "CC1=C[C@H](Cn2cnc3c(=O)[nH]c(N)nc32)C[C@@H]1CO", "strain or isolate": "ROD", "read by": "MTT", "result": ">100 µg/mL"}